This note sets out measurements from the supplement of paper PMC9931576.

B1: BD56-604 (protein)
chain 1: QVQLQESGPGLVKPSETLSLTCSVSGGSVSSSDYYWSWIRQPPGKGLEWIGYIYYSGSTNYNPSLKSRVTISVDTSKNQFSLKLSSVTAADTAVYYCARGVAMVRGVLSGAEYFDYWGQGTLVTVSS
chain 2: SYELTQPPSVSVSPGQTARITCTGDAFPKQYAFWYQKKPGQPPVLVIYKDTERPSGIPGRFSGSSSGTTVTLTISGVQAADEADYYCQSADSSGVVFGGGTKLTVL
B2: BD56-565 (protein)
chain 1: EVQLVESGGGLVQPGGSLRLSCAASGFAFRSYDMHWVRQDIGKGPEWVAAIGTAGDTYYPDSVKGRFTISRENAKNSLYLQMNSLRAGDTAVYFCVRDLEKNWYFDLWGRGTLVTVSS
chain 2: DIRMTQSPSSLSASVGDRVTITCRASQSISRFLNWYQQKPGKAPDLLIYGASTLRSGVPSRFSGSGSGTDFTLTISSLQPEDFATYYCQQSYSTPPISFGQGTRLEIK
B3: BD56-560 (protein)
chain 1: EVQLVESGGGLVQPGRSLRLSCAASGFTFDDYAIHWVRQAPGKGLEWVSGSTWNSGTIDYADSVKGRFIISRDNAKNSLYLQMNRLRAEDTALYYCAKDIALVEGKAVGFDSWGQGTLVTVSS
chain 2: EIVLTQSPATLSLSPGERATLSCRASQSISSYLAWYQQKPGQAPRLLIYDASNRATGIPARFSGSGSGTDFTLTISSLEPEDFAVYYCQQRGNWPKAFGQGTKVEIK
B4: BD56-615 (protein)
chain 1: EVQLVQSRAEVKKPGASLKISCKASGYNFTTYWIGWVRQMPGKGLEWMGIIYPGDSDTRYRPSFEGQVSISADKSITTAYLQWRTLKASDTAVYYCARLVSFDWFVDYWGQGTLVTVSS
chain 2: DIVMTQTPLSLSVTPGQPASISCKSSQSLLQSDGTTSLYWYLQKPGQPPQLLIYEVSNRFSGVPDRFSGSGSGTDFTLKISRVEAEDVGVYYCMQSIQLLTWTFGQGTKVEIK
B5: BD56-589 (protein)
chain 1: QKKLVQSGPEVKKPGTSVKVSCKASGFTFSSSAVQWVRQARGQSLEWIGWIVAGGGNTDYAQKFQGRVTISRDMSTSTAYMELSSLRSEDTAVYYCAAPYCSGGNCYDGFDIWGQGTMVTVSS
chain 2: DIALTQSPGTLSLSPGERATLSCRASQSVRSNYLAWYQHKPGQPPRLLIYAASSRATGIPERFSGSGSGTDFTLTINRLEPEDFAVYHCQQYGSSPWTFGQGTKVEI
B6: DH1082 (protein)
chain 1: EVQLVESGGGLIQPGGSLRLSCAASGLFFGAYSMNWVRQAPGKGLEWVAYISSSSKTIYYADSVKGRFTISRDNAKNELFLQMTSLRDEDTAVYFCACMVGPTAPFDFWGQGTRVTVSS
chain 2: DIQMTQSPSSLSASVGDRVTITCRAGQIIGTYLNWYQQRPGKAPMLLIYAASNLHSGVPSRFSGSGSGTDFTLTIDSLQPEDFATYYCQQTYSTPRTFGPGTKLEIK
B7: BD56-601 (protein)
chain 1: EVHLVESGGGLVQPGGSLRLSCSASGFTFSNYAMHWVRQTPGKGLEYVSSIGSNGDSPYYADSVKGRFIISRDNSKNTLYLQMSSLRDEDTAVYYCVKDVNTAMVTIFDCWGQGTLVTVSS
chain 2: DIQMTQSPPSLSASVGDRVTITCRASQSISTYLNWYQQKPGKAPKLLIYSASNLQSGVPSRFSGSGSRTDFTLTISSLQPEDFATYYCQQSYSSLLTFGGGTKVEIK

Human monoclonal antibodies against the spike receptor-binding domain (heavy:light variable regions). IC50 against pseudoviruses bearing the spike of naturally observed variants; lower = stronger; >10 µg/ml means not reached at the top dose. No active / inactive call. The stated detection limit is 0.0005 µg/ml; values near or below 0.001 µg/ml lie at the floor of the assay.

One test deals with SARS-CoV-2 Omicron BA.1 spike pseudovirus. Description: pseudovirus neutralization IC50; higher = weaker neutralization. As to the method:
(§1)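 Single-round VSV luciferase pseudovirus mixed with antibody dilutions for 1 h and put on Huh-7 cells for about a day; IC50 from the dose curve.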
For the molecule B1, the “pseudovirus neutralization IC50” value is greater than 10 µg/mL.
The same measure, in the same setting: to B2 belongs greater than 10 µg/mL; to B3, 0.542 µg/mL.
As for B4, the “pseudovirus neutralization IC50” value was 0.043 µg/mL.
Same read-out and setting: to B5 belongs 0.001 µg/mL.
The same measure, in the same setting: to B6 belongs greater than 10 µg/mL; to B7, greater than 10 µg/mL.

In another test the target is SARS-CoV-2 Omicron BA.2 spike pseudovirus. Described as above. The procedure: as §1
In the case of B1, the “pseudovirus neutralization IC50” value was greater than 10 µg/mL.
The same measure, in the same setting: to B2 belongs greater than 10 µg/mL; to B3, 0.741 µg/mL; to B4, 0.112 µg/mL.
Regarding B5, the “pseudovirus neutralization IC50” value stood at 0.00049 µg/mL.
The same measure, in the same setting: to B6 belongs greater than 10 µg/mL.
Same read-out and setting: then B7, with greater than 10 µg/mL.

A further test addresses SARS-CoV-2 Omicron BA.2.75 spike pseudovirus. The description is as above. The procedure:
as §1
B1: the “pseudovirus neutralization IC50” value was greater than 10 µg/mL.
Same read-out and setting: to B2 belongs greater than 10 µg/mL; to B3, 0.871 µg/mL.
As to B4, the “pseudovirus neutralization IC50” value worked out at 0.254 µg/mL.
The same measure, in the same setting: to B5 belongs 0.0106 µg/mL; to B6, greater than 10 µg/mL; to B7, greater than 10 µg/mL.

The next test has as its target SARS-CoV-2 Omicron BA.5 spike pseudovirus. The test is described as above. As to the method:
as §1
For the molecule B1, the “pseudovirus neutralization IC50” value was greater than 10 µg/mL.
In the case of B2, the “pseudovirus neutralization IC50” value is greater than 10 µg/mL.
B3: the “pseudovirus neutralization IC50” value was greater than 10 µg/mL.
Still for that read-out and setting: to B4 belongs 0.0844 µg/mL.
Regarding B5, the “pseudovirus neutralization IC50” value was greater than 10 µg/mL.
For the molecule B6, the “pseudovirus neutralization IC50” value was greater than 10 µg/mL.
On the same count and under the same terms, to B7 belongs greater than 10 µg/mL.

Another test addresses SARS-CoV-2 Omicron BQ.1.1 spike pseudovirus. Described as above. The procedure:
as §1
As for B1, the “pseudovirus neutralization IC50” value was greater than 10 µg/mL.
On the same count and under the same terms, then B2, with greater than 10 µg/mL.
The same measure, in the same setting: to B3 belongs greater than 10 µg/mL.
Same read-out and setting: to B5 belongs greater than 10 µg/mL; to B6, greater than 10 µg/mL.
With B7, the “pseudovirus neutralization IC50” value was greater than 10 µg/mL.

In a further test the target is SARS-CoV-2 Omicron XBB spike pseudovirus. The description is as above. As to the method: as §1
With B1, the “pseudovirus neutralization IC50” value was greater than 10 µg/mL.
On the same count and under the same terms, then B2, with greater than 10 µg/mL.
As to B3, the “pseudovirus neutralization IC50” value is greater than 10 µg/mL.
On the same count and under the same terms, to B5 belongs greater than 10 µg/mL; to B6, greater than 10 µg/mL.
Take B7: the “pseudovirus neutralization IC50” value was greater than 10 µg/mL.

For the next test, the target named is SARS-CoV-2 early D614G spike pseudovirus. The test is described as above. As to the method: as §1
Turning to B1, the “pseudovirus neutralization IC50” value is greater than 10 µg/mL.
On the same count and under the same terms, to B2 belongs greater than 10 µg/mL; to B3, 0.0313 µg/mL.
The same measure, in the same setting: then B4, with 0.0102 µg/mL; and B5, with 0.0365 µg/mL; and B6, with 5.28 µg/mL.
On the same count and under the same terms, then B7, with greater than 10 µg/mL.
